Measurements taken from patent US20110268740A1 (INTERCELL, published 2011).

What was measured:
[1] = biological target: T1, M2-PR, full-length M2 of mouse-adapted H1N1 Influenza A PR8, on cells (Influenza A virus A/PR/8/34 (H1N1)); assay: flow cytometry on L929-M2#E9 cells expressing M2-PR
T1 chain: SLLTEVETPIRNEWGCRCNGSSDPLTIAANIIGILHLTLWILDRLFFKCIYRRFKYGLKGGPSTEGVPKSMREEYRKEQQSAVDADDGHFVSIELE

[2] = biological target: T1, M2-PR, full-length M2 of mouse-adapted …; assay: flow cytometry on transfected 293T cells expressing M2-PR
[3] = biological target: M2-VN/PR fusion protein on 293T cells (Influenza A virus (strain …)); assay: flow cytometry on transfected 293T cells expressing M2-VN/PR

B1: scFv-E040-msFcγ2c (Fc fusion)
chain: DADPAQAAELVMTQSPDSLAVSLGERATINCKSSQSVLYSSNNENYLAWYQQKPGQPPKLLIYWASTRESGVPDRFSGSGSGTDFTLTINSVQAEDVAVYYCQQYFMTPITFGQGTRLEIKGGSSRSSSSGGGGSGGGGEVQLLESGGALVQPGRSLRLSCRTSGLNFGDYPINWVRQAPGKGLEWVGFIKSKSYGVTTEFAASVEGRFTISRDDSRGIAYLQMNSLKTEDTAVYYCTSSSGFLYYFDYWGQGTLVTVSSASTKGPSVTSGQAGRKLEPRVPITQNPCPPLKECPPCAAPDLLGGPSVFIFPPKIKDVLMISLSPMVTCVVVDVSEDDPDVQISWFVNNVEVHTAQTQTHREDYNSTLRVVSALPIQHQDWMSGKEFKCKVNNRALPSPIEKTISKPRGPVRAPQVYVLPPPAEEMTKKEFSLTCMITGFLPAEIAVDWTSNGRTEQNYKNTATVLDSDGSYFMYSKLRVQKSTWERGSLFACSVVHEGLHNHLTTKTISRSLGK
[1]
  EC50: 730 pM

B2: scFv-D005-msFcγ2c (Fc fusion)
chain: B1 chain with S40T, E44K, A48G, K59N, L144V
[1]
  EC50: 680 pM

B3: scFv-F052-msFcγ2c (Fc fusion)
chain: B1 chain with L10R, S18A, V37L, E44K, Q52K, D84E, R117K, E140Q, L144Q
[1]
  EC50: 460 pM

B4: fully human IgG1κ-D005 (antibody, V domains shown)
VH: EVQLVESGGALVQPGRSLRLSCRTSGLNFGDYPINWVRQAPGKGLEWVGFIKSKSYGVTTEFAASVEGRFTISRDDSRGIAYLQMNSLKTEDTAVYYCTSSSGFLYYFDYWGQGTLVTVSS
VL: DIVMTQSPDSLAVSLGERATINCKSSQSVLYTSNNKNYLGWYQQKPGQPPNLLIYWASTRESGVPDRFSGSGSGTDFTLTINSVQAEDVAVYYCQQYFMTPITFGQGTRLEIKR
[2]
  EC50: 3900 pM
[3]
  EC50: 3900 pM

Where a chain is given by its changes, count along the chain named.
